Compound potency records, mixed from different reports. Data source: NIAID ChemDB in PubChem.

Common to all: host cell toxicity; read-out: CC50

Neighbouring rows are from separate reports. Two numbers with a dash give a range or band. CCn: concentration that lowers growth or viability of the cells by n%. Blank or dashed fields: not listed here.

smiles | cell line | read by | result
C[C@@]1(O)[C@H](O)[C@@H](CO)O[C@H]1n1cnc2c(N)ncnc21 | HBIII27 |  | 33 µM
COC1=CC(=O)C2=C(C1=O)C(/C=C(\C)CCC=C(C)C)Oc1cc(OC)c(O)c(C/C=C(\C)CCC=C(C)C)c12 | L6 rat skeletal myoblasts | resazurin | 65 µM
S=c1[nH]c2c(c(=S)[nH]1)C1=C(CCC/C1=C\c1ccncc1)C(c1ccncc1)S2 | MGC-803 | MTT | 15.4 µM
N=C1Sc2ccccc2C2=NCCCN12 | Dendritic cells | LDH | >300 µM
OC[C@H]1O[C@@H](n2cnc3c(/C=C/N4CCSC4)ncnc32)[C@H](O)[C@@H]1O | Huh7 (MT-4) |  | 7 µM
Cn1cc(-c2ccccc2)nc1CNc1ccnc2cc(Cl)ccc12 | HMEC-1 | MTT | 17.5 µM
Cc1cn([C@@H]2O[C@H](CO)[C@@H](O)[C@@H]2O)c(=S)nc1N | RPMI8226 |  | >275.1 µM
C[C@@H]1CCCCC1OCCCCCCN1C[C@H](O)[C@@H](O)[C@H](O)[C@H]1CO | Huh7.5 | MTT | >500 µM
CCc1cn([C@@H]2C[C@H](O)[C@@H](CO)O2)c(=O)[nH]c1=O | F5000 (human embryo) |  | 1000 µM
O=c1[nH]c(=O)n([C@@H]2CO[C@H](CO)[C@@H](O)C2)cc1C(F)(F)F | E6SM |  | >400 µg/mL
C[C@H](Cn1cnc2c(N)ncnc21)OCP(=O)(O)O | HepG2.2.5 cells | MTT | >1740 µM
O=C1Sc2nc3c(c(=S)n2C/C1=C/c1ccccc1)C1=C(CCC/C1=C\c1ccncc1)C(c1ccncc1)S3 | CNE-2 | MTT | 24.5 µM
CCOC(=O)c1c(NC(=O)c2c(F)c(F)c(F)c(F)c2F)sc2c1CCOC2 | THP-1 human monocytic cells |  | 5.3 µM
Nc1cn(C=C2C[C@H]2CO)c(=O)[nH]c1=O | H-1 |  | >50 µM
CCc1cn([C@H]2C[C@H](O)[C@@H](CO)O2)c(=S)nc1N | RPMI8226 |  | >288.6 µM
C[C@H]1NCc2cc(-c3c(F)cc4c(=O)c(C(=O)O)cn(C5CC5)c4c3OC(F)F)ccc21 | CHL |  | 109 µg/mL
CCc1nc2ccc(C)cc2n1CCCNc1ccccc1 | Macrophages | luminescence | >50 µM
Nc1c2c(nc(=S)n1-c1ccccc1)SC(c1ccncc1)C1=C2/C(=C/c2ccncc2)CCC1 | MCF-7 | MTT | 14.6 µM
C[C@H]1O[C@@H](O[C@H]2CC[C@@]3(C)C(CC[C@]4(C)C3C=CC3=C5CC(C)(C)CC[C@]5(CO)[C@H](O)C[C@]34C)[C@]2(C)CO)[C@H](O)[C@@H](O[C@@H]2O[C@H](CO)[C@@H](O)[C@H](O)[C@@H]2O)[C@@H]1O | Huh7.5 | XTT | 740.4 µM
Cc1c(C(=O)Nc2ccc(F)c(F)c2)c2n(c1C(=O)C(=O)NC1(C)CCN(C(=O)Nc3ccc(F)c(F)c3)CC1)CCCC2 | HepG2 | MTT | 0.5–4.99 µM
Nc1ncnc2c1ncn2/C=C1/CC1(CO)CO | MEF |  | >380 µM
CCCCN1C[C@H](O)[C@@H](O)[C@H](O)[C@H]1CO | Huh7.5 | MTT | >500 µM
Cc1c(C(=O)Nc2cccc(Cl)n2)c(C)n(C)c1C(=O)C(=O)N[C@H](C)C(F)(F)F | HepG2 | MTT | >30 µM
CCCCCCCCCN1C[C@H](O)[C@@H](O)[C@H](O)[C@H]1CO | Huh7.5 | MTT | 87 µM
Cc1cc(NC(=O)c2c(C)c(C(=O)C(=O)NC3CCC(S(C)(=O)=O)CC3)n(C)c2CC2CC2)ccc1F | HepG2 | MTT | >30 µM
O=c1[nH]c(=O)n([C@@H]2CO[C@H](CO)[C@@H](O)C2)cc1Cl | E6SM |  | >400 µg/mL
Cn1c(CNc2ccnc3cc(Cl)ccc23)nc(-c2ccccc2)c1CN1CCCC1 | HMEC-1 | MTT | 28.6 µM
O=C(O)c1ccc(N2C(=O)c3cccc([N+](=O)[O-])c3C2=O)cc1O | L929 | visual reading / absorbance | >100 µg/mL
CCN(CC)Cc1cnc2c(C(=O)Nc3ccc4[nH]ncc4c3)cnn2c1 | 293T | MTT | >20 µM
COC(=O)N[C@@H]1[C@H](C)O[C@@H](OC2C/C=C(\C)[C@H]3C=C[C@H]4[C@H](OC5C[C@@H](OC6C[C@@H](O)[C@@H](OC7C[C@@H](O)[C@@H](OC)[C@H](C)O7)[C@H](C)O6)[C@@H](O)[C@H](C)O5)[C@H](C)C[C@@H](C)[C@@H]4[C@@]3(C)/C(O)=C3/C(=O)OC4(C[C@H](C)C(CO)=C[C@H]4/C=C\2C)C3=O)C[C@@]1(C)N | CEM-TART lymphoblastoid cells | MTT | 1.6 µM
Nc1ccn(CC[C@@H](CO)OCP(=O)(O)O)c(=O)n1 | MRS-5 |  | >100 µg/mL
CNC(=O)/C=C(\c1ccccc1)c1ccc2nc(N)c(-c3ccc(F)c(F)c3F)n2c1 | H-HELA |  | 6.98 µg/mL
Cc1cc(NC(=O)c2c(C)c(C(=O)C(=O)N[C@H]3[C@H]4CC[C@H](C4)[C@H]3CO)n(C)c2C)ccc1F | HepG2 | MTT | >30 µM
COc1ccc(-c2nc3ccc(-c4ccc5nc(-c6ccc(OC)cc6)[nH]c5c4)cc3[nH]2)cc1 | WI38 human lung fibroblasts | sulforhodamine | 0.71 µg/mL
CC(=O)O[C@@H]1[C@H](OC(C)=O)[C@@H](CI)O[C@H]1n1c(Cl)nc2cc(Cl)c(Cl)cc21 | KB |  | 60 µM
Cc1ccc(-c2cnc(CNc3ccnc4cc(Cl)ccc34)[nH]2)cc1 | HMEC-1 | MTT | 7.769 µM
C#Cc1cn([C@@H]2CO[C@H](CO)[C@@H](O)C2)c(=O)[nH]c1=O | E6SM |  | >400 µg/mL
Cn1cc(C(=O)O)c(=O)c2cc(F)c(N3CC=C(c4ccccc4)CC3)c(C(F)(F)F)c21 | U1 | MTT | 0.62 µM
COc1c(N2C[C@@H]3CCCN[C@@H]3C2)ccc2c(=O)c(C(=O)O)cn(C3CC3)c12 | CHL |  | 108 µg/mL
CCc1cn([C@@H]2O[C@H](CO)[C@@H](O)[C@@H]2O)c(=S)[nH]c1=O | RPMI8226 |  | >264.9 µM
CC(=O)O[C@@H]1[C@H](OC(C)=O)[C@@H](CN=[N+]=[N-])O[C@H]1n1c(Cl)nc2cc(Cl)c(Cl)cc21 | KB |  | 70 µM
Nc1ncc(/C=N/O)c(NCC2(CO)CCC2)n1 | MDCK |  | 40–72 µM
O=c1[nH]cnc2c1ncn2[C@@H]1C[C@@H](F)[C@H](CO)O1 | PBM |  | >100 µM
Cc1cc(NC(=O)c2c(C3CC3)c(C(=O)C(=O)NCC(C)(C)O)n(C)c2C)ccc1F | HepG2 | MTT | >30 µM
Clc1ccc2c(NCc3nc(-c4ccccc4)c(CN4CCCC4)s3)ccnc2c1 | HMEC-1 | MTT | 30.4 µM
CCOC(=O)CCCCCOc1cccc(CN(C(=O)c2ccc(-c3cc4ccccc4n3S(=O)(=O)c3ccccc3)cc2)C(C)C)c1 | HEK 293 |  | >20 µM
O=C(O)/C=C/c1cn([C@@H]2O[C@H](CO)[C@@H](O)[C@@H]2O)c(=S)[nH]c1=O | RPMI8226 |  | >238.4 µM
CCOC[C@H]1O[C@@H](n2c(Cl)nc3cc(Cl)c(Cl)cc32)[C@H](OC(C)=O)[C@@H]1OC(C)=O | KB |  | 60 µM
COC(=O)C(C)NP(=O)(OC[C@@H]1C/C1=C\n1cc(N)c(=O)[nH]c1=O)Oc1ccccc1 | H-1 |  | >100 µM
Cc1cn([C@H]2C[C@H](O)[C@@H](CO)O2)c(=S)[nH]c1=O | RPMI8226 |  | >302.6 µM
COC(=O)C(C)NP(=O)(OC[C@@H]1C/C1=C/n1cc(C)c(=O)[nH]c1=O)Oc1ccccc1 | H-1 |  | 45 µM
NC(=O)c1[nH]c2c(c1N)C1=C(CCC/C1=C\c1ccncc1)C(c1ccncc1)S2 | MCF-7 | MTT | >50 µM
CNC(=O)/C=C(\c1ccccc1)c1ccc2nc(N)c(SC(C)C)n2c1 | H-HELA |  | 10 µg/mL
O=C1C=CC(=C(c2ccc(O)cc2)c2ccc(O)cc2)C=C1 | ATH8 |  | <10 µg/mL
COc1ccc(C)cc1OCCBr | HEK 293 |  | >20 µM
Clc1ccc2c(NCc3ccc(CN4CCCC4)s3)ccnc2c1 | HMEC-1 | MTT | 24.2 µM
CCOC(OCC)C1=NCCc2cc(OC)c(OC)cc21 | BJ |  | <7.5 µM
Cc1cc(NC(=O)c2c(C)c(C(=O)C(=O)NC3(C)CC(O)C3)n(C)c2C2CCCCC2)ccc1F | HepG2 | MTT | >30 µM
COC(=O)[C@@H](NC(=O)[C@@H](NC(=O)[C@@H](C)NC[C@H](O)[C@H](Cc1ccccc1)NC(=O)[C@H](C)NC(=O)[C@H](C)NC(=O)OCc1ccccc1)C(C)C)C(C)C | MOLT-4 |  | >100 µM
C=Cc1cn([C@@H]2O[C@H](CO)[C@@H](O)[C@@H]2O)c(=S)nc1N | RPMI8226 |  | >266.3 µM
CCOC(=O)c1[nH]c2c(c1N)C1=C(CCC/C1=C\c1ccncc1)C(c1ccncc1)S2 | KB | MTT | >50 µM
CCOC(=O)CCCCCOc1cccc(CN(C(=O)c2ccc(-c3cccc(C(F)(F)F)c3)cc2)C(C)C)c1 | RAJI |  | >20 µM
Nc1ncnc2c1ncn2CC[C@@H](CO)OCP(=O)(O)O | MRS-5 |  | >100 µg/mL
O=c1ccn([C@@H]2C[C@@H](F)[C@H](CO)O2)c(=O)[nH]1 | PBM |  | >100 µM
O=C(O)C(O)c1ccccc1 | T CELLS |  | 1.82 µg/mL
COC[C@H]1O[C@@H](n2c(Cl)nc3cc(Cl)c(Cl)cc32)[C@H](OC(C)=O)[C@@H]1OC(C)=O | KB |  | 80 µM
CC(C)CS[C@@H]1C[C@H](n2cnc3c(N)ncnc32)[C@@H](O)[C@H]1O | E6SM |  | 80–400 µg/mL
Cc1cc(NC(=O)c2c(C)c(C(=O)C(=O)NC3(C)CC(O)C3)n(C)c2-c2ccccn2)ccc1F | HepG2 | MTT | >30 µM
N#Cc1c(NC(=O)c2c(F)c(F)c(F)c(F)c2F)sc2c1CCOC2 | THP-1 human monocytic cells |  | 24 µM
Cc1cc(NC(=O)c2c(C)c(C(=O)C(=O)NC3CCC(S(C)(=O)=O)CC3)n(C)c2-c2nccs2)ccc1F | HepG2 | MTT | >30 µM
COC(=O)[C@@H](NC(=O)[C@@H](NC(=O)CNC[C@H](O)[C@H](Cc1ccccc1)NC(=O)[C@H](C)NC(=O)[C@H](C)N)C(C)C)C(C)C | MOLT-4 |  | >100 µM
Nc1ccnc(N)n1 | MDCK |  | >910 µM
CCOC(=O)CCCCCOc1cccc(CN(C(=O)c2ccc(-c3cccnc3)cc2)C(C)C)c1 | BJ |  | >20 µM
CCN(CC)Cc1[nH]c(CNc2ccnc3cc(Cl)ccc23)nc1-c1ccc(Cl)cc1 | HMEC-1 | MTT | 2.442 µM
CC(C)Cn1cnc2c(N)nc3ccccc3c21 | CD4+ T-cell | luminescence | 9.6 µM
O=c1[nH]c(=S)[nH]c2c3c([nH]c12)SC(c1ccncc1)C1=C3/C(=C/c2ccncc2)CCC1 | MCF-7 | MTT | 14.3 µM
O=c1[nH]c(=S)n([C@@H]2O[C@H](CO)[C@@H](O)[C@@H]2O)cc1/C=C/c1ccccc1 | RPMI8226 |  | >258.7 µM
CCC(CC)(CO)CNc1cc(Cl)nc(N)n1 | MDCK |  | 220 µM
COc1c(N2CCNC(C)C2)c(F)cc2c(=O)c(C(=O)O)cn(C3CC3)c12 | CHL |  | 171 µg/mL
Nc1ncnc2c1ncn2[C@@H]1C[C@@H](F)[C@H](CO)O1 | PBM |  | >100 µM
O=C1Sc2nc3c(c(=S)n2C/C1=C/c1ccc(Cl)cc1)C1=C(CCC/C1=C\c1ccncc1)C(c1ccncc1)S3 | CNE-2 | MTT | 17.9 µM
Nc1nc2c(ncn2COCCP(=O)(N2CCOCC2)N2CCOCC2)c(=O)[nH]1 | VERO E6 | trypan blue | >2000 µM
C=CCCC1=NCC(O[Si](C)(C)C(C)(C)C)c2cc(OC)c(OC)cc21 | HEK 293 |  | <7.5 µM
N=c1c2c(ncn1Nc1ccccc1)SC(c1ccncc1)C1=C2/C(=C/c2ccncc2)CCC1 | MGC-803 | MTT | 12.2 µM
Clc1ccc2c(NCc3nc4ccccc4[nH]3)ccnc2c1 | HMEC-1 | MTT | 2.401 µM
O=C(NCc1cccs1)c1nn2c(c1Cl)NC(c1ccco1)CC2C(F)(F)F | CA32 replicon cells | ATP | >100 µM
Nc1nc2c(ncn2CC(CO)CCO)c(=O)[nH]1 | HL |  | >800 µM

Repeating the first 5 entries:

{"smiles": "C[C@@]1(O)[C@H](O)[C@@H](CO)O[C@H]1n1cnc2c(N)ncnc21", "cell line": "HBIII27", "result": "33 µM"}
{"smiles": "COC1=CC(=O)C2=C(C1=O)C(/C=C(\\C)CCC=C(C)C)Oc1cc(OC)c(O)c(C/C=C(\\C)CCC=C(C)C)c12", "cell line": "L6 rat skeletal myoblasts", "read by": "resazurin", "result": "65 µM"}
{"smiles": "S=c1[nH]c2c(c(=S)[nH]1)C1=C(CCC/C1=C\\c1ccncc1)C(c1ccncc1)S2", "cell line": "MGC-803", "read by": "MTT", "result": "15.4 µM"}
{"smiles": "N=C1Sc2ccccc2C2=NCCCN12", "cell line": "Dendritic cells", "read by": "LDH", "result": ">300 µM"}
{"smiles": "OC[C@H]1O[C@@H](n2cnc3c(/C=C/N4CCSC4)ncnc32)[C@H](O)[C@@H]1O", "cell line": "Huh7 (MT-4)", "result": "7 µM"}